Source: PMC9330476 (Toxins, 2022)
Only a part of the results on these compounds is given; other tests are left out.

How the values were obtained:
[1] = target: m(α1)2β1δε nAChR (mouse adult muscle) (Mus musculus, UniProt P02716+P04756+P09690+P20782); test: Two-electrode voltage clamp, inhibition of ACh-evoked currents, mouse adult muscle nAChR in Xenopus oocytes; settings: 600 nM, 5 min incubation then washout, agonist stimulation at one-minute intervals
[2] = test system: nAChR subtypes (hα7, hα4β2, hα3β2, m(α1)2β1δγ, and m(α1)2β1δε); test: Two-electrode voltage clamp, nAChR subtype panel in Xenopus oocytes
[3] = target: m(α1)2β1δγ nAChR (mouse fetal muscle) (Mus musculus, UniProt P02716+P04756+P04760+P09690); test: Two-electrode voltage clamp, inhibition of ACh-evoked currents, mouse fetal muscle nAChR in Xenopus oocytes; type: cell-based; settings: 600 nM, 5 min incubation then washout, agonist stimulation at one-minute intervals

## CC[C@H](C)[C@H](NC(=O)[C@H](CCCNC(=N)N)NC(=O)[C@H](C)NC(=O)[C@@H](N)CCC(=O)O)C(=O)N[C@H](C(=O)N[C@H]1CSSC[C@@H]2NC(=O)[C@H](CSSC[C@@H]3NC(=O)[C@H](Cc4ccc(O)cc4)NC(=O)[C@H](CC(N)=O)NC(=O)CNC(=O)[C@H](CSSC[C@@H]4NC(=O)[C@H](CCCNC(=N)N)NC(=O)[C@@H]5CSSC[C@@H](C(=O)O)NC(=O)[C@H](CO)NC(=O)[C@H](CSSC[C@H](NC3=O)C(=O)N[C@@H](Cc3ccc(O)cc3)C(=O)N[C@@H](CCCCN)C(=O)N[C@@H](Cc3c[nH]cn3)C(=O)NCC(=O)N5)NC(=O)CNC(=O)[C@H](Cc3c[nH]cn3)NC(=O)CNC(=O)[C@H](CCCNC(=N)N)NC(=O)[C@H](Cc3c[nH]c5ccccc35)NC(=O)[C@H](CO)NC(=O)[C@H](Cc3c[nH]cn3)NC(=O)[C@H](Cc3ccc(O)cc3)NC(=O)[C@H](C(C)C)NC4=O)NC(=O)[C@H](CCSC)NC(=O)[C@H](CCC(N)=O)NC(=O)[C@H]([C@@H](C)O)NC(=O)[C@H](CC(C)C)NC2=O)NC(=O)[C@H](CCCNC(=N)N)NC(=O)CNC(=O)[C@H](Cc2c[nH]c3ccccc23)NC(=O)[C@H](CCCCN)NC(=O)[C@H](CO)NC(=O)[C@H](CCCNC(=N)N)NC(=O)CNC(=O)[C@H](CCCNC(=N)N)NC(=O)[C@@H]2CCCN2C(=O)[C@H](CCC(N)=O)NC(=O)[C@@H](NC(=O)[C@@H](NC(=O)[C@@H](NC(=O)[C@H](CCCNC(=N)N)NC(=O)[C@H](C)NC(=O)[C@@H](N)CCC(=O)O)[C@@H](C)CC)[C@@H](C)O)CSSC[C@@H]2NC(=O)[C@H](CSSC[C@@H]3NC(=O)[C@H](Cc4ccc(O)cc4)NC(=O)[C@H](CC(N)=O)NC(=O)CNC(=O)[C@H](CSSC[C@@H]4NC(=O)[C@H](CCCNC(=N)N)NC(=O)[C@@H]5CSSC[C@@H](C(=O)O)NC(=O)[C@H](CO)NC(=O)[C@H](CSSC[C@H](NC3=O)C(=O)N[C@@H](Cc3ccc(O)cc3)C(=O)N[C@@H](CCCCN)C(=O)N[C@@H](Cc3c[nH]cn3)C(=O)NCC(=O)N5)NC(=O)CNC(=O)[C@H](Cc3c[nH]cn3)NC(=O)CNC(=O)[C@H](CCCNC(=N)N)NC(=O)[C@H](Cc3c[nH]c5ccccc35)NC(=O)[C@H](CO)NC(=O)[C@H](Cc3c[nH]cn3)NC(=O)[C@H](Cc3ccc(O)cc3)NC(=O)[C@H](C(C)C)NC4=O)NC(=O)[C@H](CCSC)NC(=O)[C@H](CCC(N)=O)NC(=O)[C@H]([C@@H](C)O)NC(=O)[C@H](CC(C)C)NC2=O)NC(=O)[C@H](CCCNC(=N)N)NC(=O)CNC(=O)[C@H](Cc2c[nH]c3ccccc23)NC(=O)[C@H](CCCCN)NC(=O)[C@H](CO)NC(=O)[C@H](CCCNC(=N)N)NC(=O)CNC(=O)[C@H](CCCNC(=N)N)NC(=O)[C@@H]2CCCN2C(=O)[C@H](CCC(N)=O)NC1=O)[C@@H](C)O [αD-FrXXA]
[1]
  reversibility on adult muscular nAChR: slightly reversible
[2]; concentration-response curves, Xenopus oocytes
  IC50 range for all subtypes of nAChRs: in the order of nM for all subtypes of nAChRs
[2]; hα7 versus the other subtypes, from IC50s
  affinity preference among nAChR subtypes: higher affinity for the neuronal α7 nAChR subtype
[2]; neuronal versus muscular nAChRs
  preference against neuronal rather than muscular nAChRs: slightly inhibitory activity preference against neuronal rather than muscular nAChRs
[3]
  reversibility on fetal muscular nAChR: slightly reversible
